Measurements: paper PMC10193894 (Journal of Enzyme Inhibition and Medicinal Chemistry, 2023)

Chains of the proteins cited; added tags and fusions are not shown. Residues count along the entry.
UniProt O14786, 275-424 limits assumed: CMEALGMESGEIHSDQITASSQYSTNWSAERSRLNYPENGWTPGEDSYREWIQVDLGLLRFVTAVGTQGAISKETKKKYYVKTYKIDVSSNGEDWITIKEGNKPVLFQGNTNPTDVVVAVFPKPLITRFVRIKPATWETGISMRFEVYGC

Tests used:
[1] = target: NRP1-BD (the b1 domain of NRP1) (Homo sapiens, UniProt O14786); assay: Microscale thermophoresis (MST) binding to NRP1-BD; settings: read-out: NRP1-BD Kd, mean ± SD (n = 3)
A549 = assay: MTT cytotoxicity assay, A549 cells; settings: up to 80 μM, 48 h
FHs 74 Int = assay: MTT cytotoxicity assay, FHs 74 Int cells; settings: up to 80 μM, 48 h
AC16 = assay: MTT cytotoxicity assay, AC16 cells; settings: up to 80 μM, 48 h

Row | Compound | Kd [1] [nM] | cytotoxicity to A549 (MTT) (A549) | cytotoxicity to FHs 74 Int (MTT) (FHs 74 Int) | cytotoxicity to AC16 (MTT) (AC16)
1 | CC[C@H](C)[C@H](NC(=O)[C@H](Cc1ccc(O)cc1)NC(=O)[C@@H](NC(=O)[C@H](CCCCN)NC(=O)[C@H](CC(N)=O)NC(=O)[C@H](CCC(N)=O)NC(C)=O)C(C)C)C(=O)N[C@@H](CC(=O)O)C(=O)N[C@@H](CCCCN)C(=O)N[C@@H](Cc1ccc(O)cc1)C(=O)N[C@@H](CC(N)=O)C(=O)N[C@@H](Cc1c[nH]cn1)C(=O)N[C@@H](CCC(=O)O)C(=O)N[C@@H](C)C(=O)N[C@@H](CCC(N)=O)C(=O)N[C@@H](CC(=O)O)C(=O)N[C@@H](CC(C)C)C(=O)N[C@@H](Cc1ccccc1)C(=O)N[C@@H](Cc1ccc(O)cc1)C(=O)N[C@@H](CCC(N)=O)C(=O)N[C@@H](CO)C(=O)N[C@@H](C)C(=O)N[C@@H](CC(C)C)C(=O)N[C@@H](CCCCN)C(=O)N[C@@H](C)C(=O)N[C@@H](Cc1c[nH]cn1)C(=O)N[C@@H](CCCNC(=N)N)C(=O)NCC(=O)N[C@@H](CC(N)=O)C(=O)N[C@@H](CCCNC(=N)N)C(=O)N[C@@H](CCCNC(=N)N)C(=O)N[C@@H](C)C(=O)N[C@@H](CCCNC(=N)N)C(=O)O [RN-1] | 24.1 |  |  | 
2 | CC(=O)N[C@@H](CCC(=O)O)C(=O)N[C@@H](CCCCN)C(=O)N[C@@H](CO)C(=O)N[C@H](C(=O)N[C@@H](CC(C)C)C(=O)N[C@@H](CCCCN)C(=O)N[C@@H](CC(=O)O)C(=O)N[C@@H](CCCNC(=N)N)C(=O)N[C@@H](Cc1ccccc1)C(=O)N[C@@H](CC(N)=O)C(=O)N[C@@H](Cc1c[nH]cn1)C(=O)N[C@@H](CCC(=O)O)C(=O)N[C@@H](C)C(=O)N[C@@H](CCC(N)=O)C(=O)N[C@@H](CC(=O)O)C(=O)N[C@@H](CC(C)C)C(=O)N[C@@H](CCCCN)C(=O)N[C@@H](Cc1ccc(O)cc1)C(=O)N[C@@H](CCC(N)=O)C(=O)N[C@@H](CC(=O)O)C(=O)N[C@@H](CO)C(=O)N[C@@H](CC(C)C)C(=O)N[C@@H](C)C(=O)N[C@@H](CO)C(=O)N[C@@H](Cc1ccc(O)cc1)C(=O)N[C@@H](CCCNC(=N)N)C(=O)NCC(=O)N[C@@H](CCCCN)C(=O)N[C@@H](CCCNC(=N)N)C(=O)N1CCC[C@H]1C(=O)N1CCC[C@H]1C(=O)N[C@@H](CCCNC(=N)N)C(=O)O)[C@@H](C)O [RN-2] | 87.1 |  |  | 
3 | CC[C@H](C)[C@H](NC(=O)[C@H](CC(N)=O)NC(=O)[C@H](CCCNC(=N)N)NC(=O)[C@H](CCC(N)=O)NC(C)=O)C(=O)N[C@@H](Cc1ccc(O)cc1)C(=O)N[C@@H](CC(C)C)C(=O)N[C@@H](CC(=O)O)C(=O)N[C@@H](CCCNC(=N)N)C(=O)N[C@@H](Cc1c[nH]cn1)C(=O)N[C@@H](CC(N)=O)C(=O)N[C@@H](Cc1c[nH]cn1)C(=O)N[C@@H](CCC(=O)O)C(=O)N[C@@H](C)C(=O)N[C@@H](CCC(=O)O)C(=O)N[C@@H](CC(=O)O)C(=O)N[C@@H](CC(C)C)C(=O)N[C@@H](CCCCN)C(=O)N[C@@H](Cc1ccc(O)cc1)C(=O)N[C@@H](CCC(N)=O)C(=O)N[C@H](C(=O)N[C@@H](C)C(=O)N[C@@H](CC(C)C)C(=O)N[C@@H](C)C(=O)N[C@@H](CO)C(=O)N[C@@H](Cc1ccccc1)C(=O)N[C@@H](CCCNC(=N)N)C(=O)N1CCC[C@H]1C(=O)N[C@@H](C)C(=O)N[C@@H](CCCCN)C(=O)N1CCC[C@H]1C(=O)N[C@@H](C)C(=O)N[C@@H](CCCNC(=N)N)C(=O)O)[C@@H](C)O [RN-3] | 91.4 |  |  | 
4 | CC(=O)N[C@@H](CCC(=O)O)C(=O)N[C@@H](C)C(=O)N[C@@H](CCCNC(=N)N)C(=O)N[C@H](C(=O)N[C@@H](Cc1ccccc1)C(=O)N[C@@H](CC(C)C)C(=O)N[C@@H](CC(=O)O)C(=O)N[C@@H](CCCCN)C(=O)N[C@@H](Cc1ccc(O)cc1)C(=O)N[C@@H](CC(N)=O)C(=O)N[C@@H](Cc1c[nH]cn1)C(=O)N[C@@H](CCC(=O)O)C(=O)N[C@@H](C)C(=O)N[C@@H](CCC(=O)O)C(=O)N[C@@H](CC(=O)O)C(=O)N[C@@H](CC(C)C)C(=O)N[C@@H](Cc1ccc(O)cc1)C(=O)N[C@@H](Cc1ccc(O)cc1)C(=O)N[C@@H](CCC(N)=O)C(=O)N[C@@H](CO)C(=O)N[C@@H](CO)C(=O)N[C@@H](CC(C)C)C(=O)N[C@@H](C)C(=O)N[C@@H](CO)C(=O)N[C@@H](Cc1c[nH]c2ccccc12)C(=O)NCC(=O)N[C@@H](CO)C(=O)N1CCC[C@H]1C(=O)N[C@@H](CCCNC(=N)N)C(=O)N[C@@H](CCCNC(=N)N)C(=O)N[C@@H](C)C(=O)N[C@@H](CCCNC(=N)N)C(=O)O)[C@@H](C)O [RN-4] | 16.1 | did not show any observable cytotoxicity | did not show any observable cytotoxicity | did not show any observable cytotoxicity
5 | CC(=O)N[C@@H](CCC(=O)O)C(=O)N[C@H](C(=O)N[C@@H](CCC(N)=O)C(=O)N[C@H](C(=O)N[C@@H](CC(C)C)C(=O)N[C@@H](CC(C)C)C(=O)N[C@@H](CC(=O)O)C(=O)N[C@@H](CCCCN)C(=O)N[C@@H](CC(C)C)C(=O)N[C@@H](CC(N)=O)C(=O)N[C@@H](Cc1c[nH]cn1)C(=O)N[C@@H](CCC(=O)O)C(=O)N[C@@H](C)C(=O)N[C@@H](CCC(=O)O)C(=O)N[C@@H](CC(=O)O)C(=O)N[C@@H](CC(C)C)C(=O)N[C@@H](CCCCN)C(=O)N[C@@H](Cc1ccc(O)cc1)C(=O)N[C@@H](CCC(N)=O)C(=O)N[C@@H](CO)C(=O)N[C@@H](C)C(=O)N[C@@H](CC(C)C)C(=O)N[C@@H](C)C(=O)N[C@@H](CO)C(=O)N[C@@H](Cc1c[nH]cn1)C(=O)N[C@@H](CCCNC(=N)N)C(=O)N[C@H](C(=O)N[C@@H](CCCNC(=N)N)C(=O)N[C@@H](CCCNC(=N)N)C(=O)N1CCC[C@H]1C(=O)N1CCC[C@H]1C(=O)N[C@@H](CCCNC(=N)N)C(=O)O)C(C)C)C(C)C)[C@@H](C)O [RN-5] | 85.1 |  |  | 
